Reference: US20250302929A1, “TUMOR NEOANTIGENIC PEPTIDES” (INSTITUT CURIE, priority 2021, published 2025)

Test system: CCLE cell lines
Assay: MS-based total proteomics, lung tumor-specific JETs in CCLE cell lines (Nusinow et al. 2020)
Parameters: species or system human
Conditions: peptide overlapping the splicing site

SSGAQGEYAGLATIR
Recurrence: 9
